Test results from article PMC10893357 (Viruses, 2024).

Legend:
Assay type in all cases: cell-based
[1] = system: SARS-CoV-2 Wuhan, lineage B.1.1 hCoV-19/Russia/Omsk202118_1707/2020; experiment: Antiviral CPE reduction assay in Vero E6 cells, Wuhan; settings: CC50/EC50 ratio
[2] = system: SARS-CoV-2 Delta, lineage B.1.617.2 hCoV-19/Russia/PSK-2804/2021; experiment: Antiviral CPE reduction assay in Vero E6 cells, Delta; settings: CC50/EC50 ratio
[3] = system: SARS-CoV-2 Omicron, BA.1 hCoV-19/Russia/Moscow171619-031221/2021; experiment: Antiviral CPE reduction assay in Vero E6 cells, Omicron BA.1; settings: Om. B.1.; CC50/EC50 ratio
[4] = system: SARS-CoV-2 Omicron, BA 5.2 hCov-19/Russia/Moscow-49415/2022; experiment: Antiviral CPE reduction assay in Vero E6 cells, Omicron BA.5.2; settings: Om. 5.2; CC50/EC50 ratio
[5] = system: SARS-CoV-2 Omicron, XBB 1.5 hCoV-19/Russia/SAK-SRC-8527/2023; experiment: Antiviral CPE reduction assay in Vero E6 cells, Omicron XBB.1.5; settings: Om. XBB; CC50/EC50 ratio
[6] = system: SARS-CoV-2 Omicron lineage BQ.1.1 hCoV-19/Russia/TOM-SRC-8663/2023; experiment: Antiviral CPE reduction assay in Vero E6 cells, Omicron BQ.1.1; settings: Om. BQ; CC50/EC50 ratio

Row | SMILES | SI [1] | SI [2] | SI [3] | SI [4] | SI [5] | SI [6]
1 | CC(=O)C1=C(O)C=C2Oc3c(-c4csc(N/N=C/c5ccc(Br)s5)n4)c(O)c(C)c(O)c3[C@@]2(C)C1=O [(+)-3e] | 14 | 8 | 17 | 17 | 15 | 11
2 | CCC(CC)COC(=O)[C@H](C)N[P@](=O)(OC[C@H]1O[C@@](C#N)(c2ccc3c(N)ncnn23)[C@H](O)[C@@H]1O)Oc1ccccc1 [Remdesivir, reference compound] | 186 | 338 | 356 | 159 | 267 | 226
